Measured values from several laboratories, pooled; numbers as filed in NIAID ChemDB.

Common to all: tests on isolated targets; species: Pneumocystis carinii; protein: Dihydrofolate reductase; measure: IC50

ICn is the concentration giving n% inhibition. Two numbers with a dash give a range or band. Lines come from different laboratories, so protocols vary.

compound	result
COc1cc(CN2C=c3c(c4c([nH]c3=O)=NC(=N)N=C4N)C2)cc(OC)c1OC	3.1 µM
Nc1nc(N)c2nc(CN3c4ccccc4CCc4ccccc43)cnc2n1	1.4 µM
Nc1nc(N)c2c(ccc3cc(Cl)ccc32)n1	0.43 µM
CN(Cc1cnc2nc(N)nc(N)c2n1)c1c(Cl)cc(C(=O)N[C@@H](CCC(=O)O)C(=O)O)cc1Cl	0.000035 µM
CCc1nc(N)nc(N)c1-c1ccc(Cc2ccccc2)c([N+](=O)[O-])c1	1.03 µM
Nc1nc(N)c2nc(CN3c4ccccc4C=Cc4ccccc43)cnc2n1	0.21 µM
Nc1nc(N)c2c(ccc3cc(Cl)c(Cl)cc32)n1	0.73 µM
Nc1nc(N)c2nc(CO)cnc2n1	>51 µM
Nc1nc(N)c2nc(CNc3ccccc3)cnc2n1	>1.9 µM
Nc1nc(N)c2c(ccc3c(Cl)c(Cl)ccc32)n1	1 µM
COc1cccc2c1CCN2Cc1cnc2nc(N)nc(N)c2c1C	0.25 µM
Nc1nc(N)c(-c2ccc(Cl)c(Cl)c2)c(/C=C/c2ccc3ccccc3c2)n1	12.8 µM
COc1cc(C2Cc3cnc4nc(N)nc(N)c4c3C2)cc(OC)c1OC	12.6 µM
Nc1nc(N)c2c(ccc3cc(Cl)ccc32)n1	3.5–4.1 µM
Cc1cnc2nc(N)nc(N)c2n1	>20 µM
CCc1nc(N)nc(N)c1-c1ccc(Cl)c([N+](=O)[O-])c1	0.19–10.6 µM
Cc1c(CNc2ccc(C(=O)NC(CC(=O)O)CC(=O)O)cc2)ccc2nc(N)nc(N)c12	0.00022 µM
Nc1nc(N)c2cc(Cl)ccc2n1	0.28–3.6 µM
CN(Cc1cnc2nc(N)nc(N)c2n1)c1c(F)cc(C(=O)N[C@H](CCC(=O)O)C(=O)O)cc1F	0.00051 µM

For reference, 2 entries again:

compound,result
CN(Cc1cnc2nc(N)nc(N)c2n1)c1c(F)cc(C(=O)N[C@H](CCC(=O)O)C(=O)O)cc1F,0.00051 µM
COc1cccc2c1CCN2Cc1cnc2nc(N)nc(N)c2c1C,0.25 µM